Test [1] addresses Spike protein of authentic SARS-CoV-2 virus BetaCoV/Munich/BavPat1/2020 (D614G). In words: cell-based or functional assay.
For test [2], the target named is S1-His(D614G) (SARS-CoV-2). Nature of the test: Octet BLI; […] steady-state analysis; n = 3. (In general: BLI is a label-free optical method that tracks binding on a fibre tip over time.)
The target of test [3] is S1-His(D614G) (SARS-CoV-2). In words: Octet BLI classical sandwich; […].
Test [4] deals with S1-His(D614G) (SARS-CoV-2). In words: Octet BLI; […] steady-state analysis.
The target of test [5] is S1-His(D614G) (SARS-CoV-2).

Where “and” joins values, the source holds several entries; their conditions need not be identical. Equal entries are not always repeated. Where two headings read alike, the source gives them in different places.

Consider 17 molecules from patent US20230250158A1 (TALEM THERAPEUTICS, published 2023).

B1: 5-B6 (antibody, V domains shown)
VH: QVQLVQSGAEVKKPGSSVKVSCKASGGTFSSYAISWVRQAPGQGLEWVGGIIPMFNSASYAQKFQGKVTITADKATNTAYMELSSLRSEDTAVYYCARESSGYYYVSNWFDPWGQGTLVTVSS
VL: QSVLTQPSSVSGAPGQRVTISCTGSSSNIGAGYDVHWYQQIPGTAPRLLIYANSGRASGVPDRFSGSKSGTSASLAITGLQAEDEADYYCQSYDSSLSGVVFGGGTKLTVL
For the molecule B1, the “Live Virus IC50” value in test [1] is more than 100 µg/mL.

B2: 22-E7 (antibody, V domains shown)
VH: QVQLVESGGGVVQPGTSLRLSCAASGFTFNNYPMFWVRQAPGKGLEWLALISYDGNHKVYADSVKGRFTISRDNAKNTLYLQMHSLRAEDTALYYCASDLSGAEDSWGQGTLVTVSS
VL: QSALTQPASVSGSPGQSITISCTGTSSDVGGYNYVSWYQQHPGKAPKLLIYEVSNRPSGVSNRFSGSKSGNTASLTISGLQAEDEADYYCSSYTSSSTWVFGGGTKLTVL
notes: also called bin C
On to B2, for which the “Live Virus IC50” value in test [1] was more than 100 µg/mL. Further, the Kd (usually the free concentration of one partner at which half of the binding sites on the other are occupied at equilibrium, for simple one-to-one binding) in test [2] came to 207 nM.

B3: 23-A11 (antibody, V domains shown)
VH: QVQLVESGGGVVQPGRSLRLSCAASGFTFSSYGMHWVRQAPGKGLEWVAVISYDGSNKYYADSVKGRFTISRDNSKNTLYLQMNSLRAEDTAVYYCAKEGELRGAFDIWGQGTMVTVSS
VL: SYVLTQPPSVSVAPGKTARITCGGDNIESKYVHWYQQKPGQAPVLVIYYDTDRPSGIPERFSGANSGNSATLTISRVEAGDEADYYCQVWDRTSGHFVFGPGTKVTVL
Consider B3, for which the “Live Virus IC50” value in test [1] was more than 100 µg/mL.

B4: 27-G3 (antibody, V domains shown)
VH: QVQLVQSGAEVKKPGASVKLSCTASGYTFTSYYMHWVRQAPGQGLEWMGIIDPTGGSTSYAQKFQGRVTMTRDTSTSTVYMELSSLRSEDTAVYYCASAGVGNTFDYWGQGTLVTVSS
VL: NFMLTQPHSVSASPGKTVTISCTRSSGSIARNYVQWYQQRPGRSPNILIFEDKQRPSGVPDRFSGSIDSSSNSASLTISGLKTEDEADYYCQSYDSSNQWVFGGGTKLTVL
Take B4: in test [3], the binding result was “binds”.

B5: 13-A1 (antibody, V domains shown)
VH: EVQLVQSGAEVKKPGESLKISCKGSGYSFTSYWIGWVRQMPGKGLEWMGIIYPGDSDTRYSPSFQGQVTISADKSISTAYLQWSSLKASDTAMYYCARYLSSEGMDVWGKGTTVTVSS
VL: QSVLTQPPSASGTPGQRVTISCSGRSSNIGSNPVNWYQQLPGTAPKLLIYNNIQRPSGVPDRFSGSKSGTSASLAISGLQSEDEAVYYCASWDDSLNEGVFGGGTQLTVL
For B5, the “Live Virus IC50” value in test [1] was more than 100 µg/mL.

B6: 27-A11 (antibody, V domains shown)
VH: QVQLVQSGAEVKKPGASVKVSCKASGYTFTSYYMHWVRQAPGQGLEWMGIIDPSGGSTSYAQKFQGRVTLTRDTSTSTVYMELSSLRSEDTAVYYCARSRDGYIDDAFDIWGQGTLVTVSS
VL: QSVLTQPPSVSAAPGQKVTISCSGSSSNIGNNYVSWYQQLPGTAPKLLIYDNNKRPSGIPDRFSGSKSGTSATLGITGLQTGDEADYYCGTWDSSLSAGVFGGGTKLTVL
With B6, in test [1], the “Live Virus IC50” value was more than 100 µg/mL.

B7: 8-A2 (antibody, V domains shown)
VH: QVQLVQSGAEVKKPGASVKVSCKASGYTFTGYYLHWVRQAPGQGLEWMGRINPNSGGTNYAQKFQGRVTMTRDTSISTAYMELSRLTSDDTAVYYCLAVAGTGGDAFDIWGQGTTVTVSS
VL: DIQMTQSPSTLSASVGDRVTITCRASQSISSWLAWYQQKPGKAPKLLIYAASSLESGVPSRFSGSGSGTDFTLTISSLQPEDFATYYCQQGHSFPLTFGGGTKVDIK
As to B7, the “Live Virus IC50” value in test [1] was more than 100 µg/mL.

B8: 22-D9 (antibody, V domains shown)
VH: QVQLVQSGAEVKKPGSSVNVSCKTSGGTFNTYSINWVRQAPGQGLEWMGEIIPIFDKPNYAQKFQGRVTITADESTSTAYMELTSLRSDDTAVYYCARGTGYYYGMDVWGQGTTVTVSS
VL: QSVLTQPPSVSGAPRQTVTISCFGSRSNIGNYPVNWYHQVPGKAPKVVVYYDDLLPSGISDRFSGYKSGTSASLTISGLRSEDEADYYCATWDDSLNVWVFGGGTKLTVL
notes: also called bin 4
For the molecule B8, the “Live Virus IC50” value in test [1] is more than 100 µg/mL. Also, the Kd in test [4] is 245 nM and 249 nM.

B9: 2-A6 (antibody, V domains shown)
VH: QVTLRESGPALVKPTQTLTLTCTFSGFSLNTRGMSVSWIRQPPGKALEWLALIDWEDDKFYRTSLMTRLTISKDIFKNQVVLTMTNVDPVDTGTYYCARTYSVGVKYFGMDVWGQGTTVTVSS
VL: SSELTQDPAVSVALGQTVRITCQGDSLRNYYASWYRQEPGQAPILLIYGGNYRPSGIPDRFSGSSSGNTASLTITGAQAEDEADYYCNSRDSSGNHVVFGGGTKLTVL
notes: also called bin S2
As for B9, the “Live Virus IC50” value in test [1] was more than 100 µg/mL.

B10: 8-D4 (antibody, V domains shown)
VH: EVQLVQSGAEVKKPGESLKISCKGSGYSFTSYWIGWVRQMPGKGLEWMGIIYPGDSDTRYSPSFQGQVTISADKSISTAYLQWSSLKASDTAMYYCARNPSLYSSPTDYWGQGTLVTVSS
VL: not shown
For B10, in test [1], the “Live Virus IC50” value is more than 100 µg/mL.

B11: 11-H1 (antibody, V domains shown)
VH: not shown
VL: QSVLTQPPSVSEAPRQRVTISCSGSSSNIGNNAVNWYQQLPGQAPRLLIYYDNLLPSGVSDRFSASTSGTSASLAISDLRSEDEADYYCASWDDRLDSPVFGGGTKLTVL
Take B11: the “Live Virus IC50” value in test [1] is more than 100 µg/mL.

B12: 24-B8 (antibody, V domains shown)
VH: QVQLVQSGAEVKKPGSSVKVSCKASGGTFSNYAISWVRQAPGQGLEWMGGIIPILDTTNYAQKFQGRVTITADESTSTAYMELNSLRSEDTAVYYCVREEGFDYWGQGTLVTVSS
VL: QSVLTQPSSLSASPGASASLTCTLRSGINVGAYNIYWYQQKPGSPPQFVLRYNSDSDNQQGSGVPSRFSGSKDASANAGILLISGLQSEDEAEYYCMIWRSSAWVFGGGTKLTVL
Consider B12, for which the “Live Virus IC50” value in test [1] was more than 100 µg/mL.

B13: 22-F7 (antibody, V domains shown)
VH: QVQLVESGGGVVQPGRSLRLSCAASGFSFTNYGMHWVRQAPGKGLEWVAVISYDGSIKYYEDSLKGRFTVSRDNSKKTLYLQMNSLRAEDTAVYYCTRERGTGIDYWGLGTLVTVSS
VL: QSALTQPASVSGYPGQSITLSCTGTKSDIGAYNYVSWYQQHPGKAPKLMVYDVSNRPSGLSNRFSGSKSDNTASLTISGLQAEDEAHYYCSSYTTSGTVVFGGGTKVTVL
notes: also called bin C
B13: the “Live Virus IC50” value in test [1] is more than 100 µg/mL. Moreover, in test [4], the Kd worked out at 144 nM.

B14: 21-F2 (antibody, V domains shown)
VH: QVQLVQSGAEVKKPGASVTVSCKTSGYIFTNYDINWVRQAPGQGLEWVGWVNPNSGKVGYAQKFQGRVIMTRSDSESTAYMELTNLTSDDTAVYYCARGHTDFWGQGTLVTVSS
VL: QSVLTQPPSVSEAPRQRVTISCSGSSSNIGNNAVNWYQQLPGRAPKLLIYYDDLLPSGVSDRFSGSKSGTSASLAISGLQSEDEADYYCAAWDDSLNGVVFGGGTQLTVL
With B14, in test [1], the “Live Virus IC50” value stood at 10.5 µg/mL.

B15: 30-C5 (antibody, V domains shown)
VH: QVQLVESGGGVVQPGRSLRLSCAASGFTFSNYGMHWVRQAPGKGLEWVAVISYDGSIEYYADSVKGRFTISRDNSSNTLYLQMNSLRAEDTAVYYCARDEDGAFDIWGQGTTVTVSS
VL: DIVMTQSPESLAVSLGERATINCKSSESVSYSSSNKNYLSWYQQIPGQPPKLLIYWASTRESGVPDRFSGSGSGTDFTLTISSLQAEDVAVYYCQQYYSSPLTFGGGTKVEIK
Consider B15, for which the “Live Virus IC50” value in test [1] was more than 100 µg/mL.

B16: 22-E8 (antibody, V domains shown)
VH: QVQLVQSGAEVKKPGSSVKVSCKASGGTFSSYAISWVRQAPGQGLEWMGGIIPIFGTTNYAQKFQGRVTITADESTSTAYMELSSLRSEDTAVYYCARDHGYYYGMDVWGQGTTVTVSS
VL: QSVLTQPSSVSAAPRQRVTLSCSGGDSNIGQNGVNWYLHVPGKAPRLVVYYDYLVSAGMSARFSGSRSGTSASLAISGLQSEDEGVYYCASWDDSLSAWVFGGGTKLTVL
Turning to B16, in test [1], the “Live Virus IC50” value was more than 100 µg/mL.

B17: 23-H7 (antibody, V domains shown)
VH: QVQLVQSGAEVKLPGASMKVSCKASGYTFSTYYMHWVRQAPGQGPEWMGVIDPSGGTTSYAQKFHDRIAMTRDTSTSTAYLELSSLRSEDMAVYYCARGGFADAVDYWGQGTLVTVSS
VL: NFMLTQPHSVSGSPGKTVTISCTRNSGSIAGNYVQWYQQRPGSAPTTVIYEDNQRPSGVPDRFSGSIDSSSNSASLTISGLKTEDEADYYCQSYDASHLHVIFGGGTKVTVL
notes: also called bin 2
Take B17: in test [1], the “Live Virus IC50” value is more than 100 µg/mL. The molecule further yielded a Kd in test [5] of 15 nM.
